Laboratory results published in PMC4057808, “Molecular characterization of Clonorchis sinensis secretory myoglobin: Delineating its role in anti-oxidative survival” (Parasites & Vectors, 2014).

Test system: CCn1c(=NN=c2sc3cc(S(=O)(=O)O)ccc3n2CC)sc2cc(S(=O)(=O)O)ccc21
Experiment: purified protein
Conditions: H2O2 (0.2 mM in methods, ~20 μM in table note), 50 mM sodium phosphate pH 7.0, 20 °C, ABTS varied 20-300 mM as printed

“rCsMb (CsMb, Clonorchis sinensis myoglobin) (Clonorchis sinensis; Y68A)” showed a Km of 83 mM.
